Results on one molecule are retold here after article PMC3215231, “Arcanolysin is a cholesterol-dependent cytolysin of the human pathogen Arcanobacterium haemolyticum” (BMC Microbiology, 2011).

This assay deals with T1, ALN (arcanolysin), His-ALN (Arcanobacterium haemolyticum, UniProt D7BPC7).
T1 construct: gene Arch_1062
The note with it: 5 HU toxin, 0.01-1 μM cholesterol in ethanol, 30 min at room temperature; human blood.

As to `CC(C)CCC[C@@H](C)[C@H]1CC[C@H]2[C@@H]3CC=C4C[C@@H](O)CC[C@]4(C)[C@H]3CC[C@]12C` [cholesterol], the “% activity retained at 0.5 μM cholesterol” value was 41.4%.
